In patent US20240270826A1 (NATIONAL RESEARCH COUNCIL OF CANADA, published 2024):

B1: NRCoV2-12 VHH-Fc (Fc fusion)
chain: EVQLQQSGGGLVQAGGSLRLSCAASGRTFRNYVMGWFRQAPQAPGKDHEFVAAISWGGTEIYYADSVKGRFTISRDNAKNTVYLQMNSLKPEDTAVYYCAADRGLSYYYTRTTEYNYWGQGTQVTVSS
B2: NRCoV2-SR02 VHH-Fc (Fc fusion)
chain: EVQLVDSGGGLVQAGGSLRLSCTASEFTLNYYSIGWFRQSPGKEREGVSCIRYSGGGIDYADSVKGRFTISRDNAKNTVYLTMNSLKPEDTAVYYCAADRLYSRACPTAGGRNYWGQGTQVTVSS
notes: bivalent VHH-Fc
B3: NRCoV2-07 VHH-Fc (Fc fusion)
chain: QVQLVQSGGGLVQPGGSLRLSCAASGVTLDYYAIGWFRQAPGKEREAVSCISSNGRRNHYVASVRGRFTISRDNAKSTVYLQMNSLKPEDTAVYYCAAVQDVHGDNYYCTSPNEYNVWGQGTQVTVSS
notes: bivalent VHH-Fc
B4: NRCoV2-SR01 VHH-Fc (Fc fusion)
chain: EVQLVQSGGGSVQAGGSLRLSCVASGFTFDNYAIGWFRQAPGKEREGVSCISGNGGVTIYADSVKGRFTISRDNAKNLVYLQMNSLKPEDTAVYYCAATGIRSTWSVYGCSRLAGPYDYWGQGTQVTVSS
notes: bivalent VHH-Fc
B5: NRCoV2-20 VHH-Fc (Fc fusion)
chain: EVQLQQSGGGLVQPGGSLRLSCAASGRTFSNYVVGWFRQAPQAPGKDHEFVAVISGSDTETYYADSVKGRFTISRDNAKNTVYLQMNSLKPEDTAVYYCAADRGMSYYYTRATEYYYWGQGTQVTVSS
notes: bivalent VHH-Fc
B6: NRCoV2-MRed05 VHH-Fc (Fc fusion)
chain: EVQLVESGGGLVQPGGSLRLSCAASGFTLDYYAIGWFRQAPGKEREGVSCISSSDGSTLYADSVKGRFTISRDNAKNTVYLQMNSLKPEDTAVYYCATGPQAYYSGSYYFQCPQAGMDYWGKGTQVTVSS
notes: bivalent VHH-Fc
B7: NRCoV2-MRed04 VHH-Fc (Fc fusion)
chain: EVQLVESGGGLVQPGRSLRLSCAASGNSFSISTMGWFRQAPGKERELVASIWSDTTTSYADSVKGRFTISTDNTRTKVYLQMSSLNPEDTAVYYCAADRGFVVRGQYDYWGQGTQVTVSS
notes: bivalent VHH-Fc
B8: NRCoV2-11 VHH-Fc (Fc fusion)
chain: EVQLVSSGGGLVQPGGSLRLSCAASGSSLDSYSVSWFRQAPGKEREWISFISRYYSSTYYTDSVKGRFTTSRDGDQKTVHLQMNSLKPEDTAVYYCAARSRDFSSPFSATDTYTSWGQGTQVTVSS
notes: bivalent VHH-Fc
B9: NRCoV2-18 VHH-Fc (Fc fusion)
chain: EVQLVESGGGLVQAGGSLRLSCVASGITISGYNMAWWRQTRGKQTERVAFINSGGSTTYSDSVKGRFTISRDNGKNTAYLQMNSLNAEDTADYFCSLHTSHDYWGQGTQVTVSS
notes: bivalent VHH-Fc
B10: NRCoV2-12 VHH-Fc (Fc fusion)
chain: EVQLQQSGGGLVQAGGSLRLSCAASGRTFRNYVMGWFRQAPQAPGKDHEFVAAISWGGTEIYYADSVKGRFTISRDNAKNTVYLQMNSLKPEDTAVYYCAADRGLSYYYTRTTEYNYWGQGTQVTVSS
notes: bivalent VHH-Fc
B11: NRCoV2-17 VHH-Fc (Fc fusion)
chain: EVQLQQSGGGLVQTGGSLRLSCAAAGSPFSQLAMSWYRQISGKERAWVASISPTGNRSYSKIAKGRFTISRDNAKNTVTLQMTSLKPEDTAAYICQAANVNGGDYWGQGTQVTVSS
notes: bivalent VHH-Fc
B12: NRCoV2-1d VHH-Fc (Fc fusion)
chain: EVQLVESGGGSVQPGGSLRLSCAASGSTLDYYAIGWFRQAPGKEREWVSSVSSSDGNTLYADSVKGRFTISRDNAKNTVYLQMNSLKAEDTAVYVCAADYSMRPFAVGRWHRDYEYWGQGTQVTVSS
notes: bivalent VHH-Fc
B13: NRCoV2-10 VHH-Fc (Fc fusion)
chain: QLQLQESGGGLVQPGGSLTLSCAASGNTFSRSNMHWYRQAPGAQREWVAAISSRGISTYAYSAKGRFTISRDNAKNTVSLQMNSLKPEDTAVYYCYAADDLGDYWGQGTQVTVSS
notes: bivalent VHH-Fc
B14: NRCoV2-14 VHH-Fc (Fc fusion)
chain: EVQLVSSGGGLVQAGGSLRLSCEASGTTFSHYAVGWYRQAPGKQREWVASISVFGSTTYGGSVAGRFTISRDNDKNTVDLQMNSLKPEDTAVYYCHAVNADIGGDYWGQGTQVTVSS
notes: bivalent VHH-Fc
B15: NRCoV2-15 VHH-Fc (Fc fusion)
chain: EVQLVSSGGGLVEAGGSLRLSCIASGSTSGRNTMGWFRQAPGKQREWVAIVSTSGATNYAGSVKGRFTLSRDNAKNAVYLQMNNLKPEDTAVYYCYAAYGGGGDYWGQGTQVTVSS
notes: bivalent VHH-Fc
B16: NRCoV2-SR13 VHH-Fc (Fc fusion)
chain: EVQLVESGGGLVTTGGSLRLSCATSGSRFGSKHMAWYRQAPGKQRDLVAAISSGGSTHYGSSVKGRFTISRDNAKSTVYLQMNSLNPEDTAVFYCNMGGWDYRSNTYIPGSRSDYWGQGTQVTVSS
notes: bivalent VHH-Fc
B17: NRCoV2-SR02 VHH-Fc (Fc fusion)
chain: EVQLVDSGGGLVQAGGSLRLSCTASEFTLNYYSIGWFRQSPGKEREGVSCIRYSGGGIDYADSVKGRFTISRDNAKNTVYLTMNSLKPEDTAVYYCAADRLYSRACPTAGGRNYWGQGTQVTVSS
notes: bivalent VHH-Fc
B18: NRCoV2-02 VHH-Fc (Fc fusion)
chain: EVQLVESGGGLVQAGGSLRLSCAASGFTFSNYAMNWVRQAPGKGLEWVSGISGRGDDTRYADSVKGRFTISRDNAKNTLFLQMRSLRPEDTGVYRCTKGPDLYYFGSGYSDRGQGTQVTVSS
notes: bivalent
B19: NRCoV2-SR02 VHH (VHH)
VHH: EVQLVDSGGGLVQAGGSLRLSCTASEFTLNYYSIGWFRQSPGKEREGVSCIRYSGGGIDYADSVKGRFTISRDNAKNTVYLTMNSLKPEDTAVYYCAADRLYSRACPTAGGRNYWGQGTQVTVSS
B20: NRCoV2-07 VHH (VHH)
VHH: QVQLVQSGGGLVQPGGSLRLSCAASGVTLDYYAIGWFRQAPGKEREAVSCISSNGRRNHYVASVRGRFTISRDNAKSTVYLQMNSLKPEDTAVYYCAAVQDVHGDNYYCTSPNEYNVWGQGTQVTVSS
B21: NRCoV2-1d VHH (VHH)
VHH: EVQLVESGGGSVQPGGSLRLSCAASGSTLDYYAIGWFRQAPGKEREWVSSVSSSDGNTLYADSVKGRFTISRDNAKNTVYLQMNSLKAEDTAVYVCAADYSMRPFAVGRWHRDYEYWGQGTQVTVSS
B22: NRCoV2-05 VHH (VHH)
VHH: EVKLVQSGGGLVQPGGSLRLSCAASGFIFSNYAMNWVRQAPGKGLEWVSGINSGGGDTRYADSVKGRFTVSRDNAKNTLYLQMNSLKPEDTGVYYCSKGPVSSYYGSGYDYRGQGTQVTVSS
B23: NRCoV2-02 VHH (VHH)
VHH: EVQLVESGGGLVQAGGSLRLSCAASGFTFSNYAMNWVRQAPGKGLEWVSGISGRGDDTRYADSVKGRFTISRDNAKNTLFLQMRSLRPEDTGVYRCTKGPDLYYFGSGYSDRGQGTQVTVSS

Each binder was assayed against T1, RBD_beta (aa319-541) (B.1.351) (SARS-CoV-2 (Beta, B.1.351), UniProt P0DTC2 319-541) (assay: not given).
In the case of B1, the Kd is reported as 0.0401 nM, the koff is reported as 3.89e-05 s⁻¹ and the kon is reported as 970000 M⁻¹ s⁻¹.

What follows are binders tested against SARS-CoV-2 spike protein S on live virus, Beta variant (SARS-CoV-2 (Beta variant), UniProt P0DTC2 14-1273) (assay: cell-based or functional assay).
B2 was tested, and the “LVNA IC50” value was about 300 nM. In the case of B3, the “LVNA IC50” value is reported as 3.18 nM. B4 was tested, and the “LVNA IC50” value was 70.3 nM. In the case of B5, the “LVNA IC50” value is reported as 2.88 nM. For B6, the “LVNA IC50” value was 0.11 nM. For B7, the “LVNA IC50” value was 5.73 nM. In the case of B8, the “LVNA IC50” value is reported as 18.5 nM. B9 was tested, and the “LVNA IC50” value was 9.48 nM. B10 was tested, and the “LVNA IC50” value was 2.62 nM. For B11, the “LVNA IC50” value was 34.7 nM. For B12, the “LVNA IC50” value was 2.14 nM. For B13, the “LVNA IC50” value was 2.25 nM. With B14 the “LVNA IC50” value was 32.8 nM. With B15 the “LVNA IC50” value was 0.43 nM.

These binders were tested against Human SARS-CoV-2 Alpha S (SARS-CoV-2 (Alpha variant)) (assay: flow cytometry SVNA: VHH-Fc inhibits S binding to ACE2 on Vero E6 cells).
Work on B16 yielded an IC50 of 22.4 nM. B17 gave an IC50 of 7.3 nM.

What follows are binders tested against T2, SARS-CoV-2 S1-RBD (adsorbed in ELISA) (SARS-CoV-2 Wuhan) (assay: ELISA, coated antigen, apparent EC50).
T2 construct: domain: S1-RBD
In the case of B18, the EC50 is reported as 0.21 nM.

The binders below were run against T3, SARS-CoV-2 spike trimer S (Wuhan, SmT1) (SARS-CoV-2 Wuhan) (assay: competitive ELISA, VHH 0.5 uM final, ACE2-Fc competitor).
T3 construct: extracellular domain
With B19 the “% inhibition of ACE2-Fc binding to S” value was about 100%. For B20, the “% inhibition of ACE2-Fc binding to S” value was about 100%. B21 was tested, and the “% inhibition of ACE2-Fc binding to S” value was about 100%. In the case of B22, the “% inhibition of ACE2-Fc binding to S” value is reported as about 100%. B23 was tested, and the “% inhibition of ACE2-Fc binding to S” value was about 100%.

Target: T1, RBD_beta (aa319-541) (B.1.351)
Test: not given
Remark: another data set of the same source
B1 showed a Kd of 0.04 nM.
